Laboratory results published in ChEMBL document CHEMBL4052757, “Bistacrines as potential antitrypanosomal agents” (Bioorg Med Chem, 2017).
Calls of active or inactive are those of the source. The rule behind the calls is not given here.

Sequences of proteins named here, by UniProt entry; tags and fusion partners are left off. A change or cut given only in a name is not applied to a line headed by its entry.
UniProt P28593: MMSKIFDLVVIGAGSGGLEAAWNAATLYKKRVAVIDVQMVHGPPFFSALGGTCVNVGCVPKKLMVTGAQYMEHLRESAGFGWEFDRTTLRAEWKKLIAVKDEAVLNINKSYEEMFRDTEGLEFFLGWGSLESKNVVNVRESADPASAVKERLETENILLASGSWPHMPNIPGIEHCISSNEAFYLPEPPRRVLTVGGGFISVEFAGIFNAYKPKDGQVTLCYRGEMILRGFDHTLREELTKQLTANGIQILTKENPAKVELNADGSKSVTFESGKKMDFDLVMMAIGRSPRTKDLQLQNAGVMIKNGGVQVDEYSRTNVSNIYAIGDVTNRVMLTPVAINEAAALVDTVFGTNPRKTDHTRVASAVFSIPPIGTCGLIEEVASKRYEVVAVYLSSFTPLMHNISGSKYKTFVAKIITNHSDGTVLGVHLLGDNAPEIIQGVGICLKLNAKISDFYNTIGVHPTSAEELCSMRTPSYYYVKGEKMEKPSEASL

What was measured:
[1] = molecular target: Rhodesain (Trypanosoma brucei rhodesiense) (UniProt Q95PM0); assay: Inhibition of Trypanosoma brucei rhodesiense rhodesain at 20 uM using Cbz-Phe-Arg-AMC as substrate measured for 5 mins by spectrofluorometric analysis relative to control
Method in brief: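 Rhodesain in 50 mM sodium acetate pH 5.5 with 5 mM DTT, 5 mM EDTA, 200 mM NaCl; inhibitor 20 µM, substrate Cbz-Phe-Arg-AMC; AMC fluorescence (ex 380/em 460 nm) followed 5 min; activity from slopes of fluorescence vs time versus DMSO control; run in duplicate.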

[2] = molecular target: Trypanothione reductase (Trypanosoma cruzi) (UniProt P28593); assay: Inhibition of Trypanosoma cruzi trypanothione reductase at 3 uM using 40 uM trypanothione disulfide as substrate by spectrophotometric method relative to control
[3] = molecular target: Trypanothione reductase (Leishmania infantum) (UniProt A4HSF7); assay: Inhibition of Leishmania infantum trypanothione reductase
Leishmania infantum = assay: Antileishmanial activity against Leishmania infantum; format: functional
[4] = molecular target: Trypanothione reductase (Trypanosoma cruzi) (UniProt P28593); assay: Inhibition of Trypanosoma cruzi trypanothione reductase at 1 uM using 100 uM trypanothione disulfide as substrate by spectrophotometric method relative to control
[5] = molecular target: Trypanothione reductase (Trypanosoma cruzi) (UniProt P28593); assay: Inhibition of Trypanosoma cruzi trypanothione reductase at 3 uM using 100 uM trypanothione disulfide as substrate by spectrophotometric method relative to control
[6] = molecular target: Trypanothione reductase (Trypanosoma cruzi) (UniProt P28593); assay: Inhibition of Trypanosoma cruzi trypanothione reductase at 1 uM using 40 uM trypanothione disulfide as substrate by spectrophotometric method relative to control
[7] = molecular target: Rhodesain (Trypanosoma brucei rhodesiense) (UniProt Q95PM0); assay: Inhibition of Trypanosoma brucei rhodesiense rhodesain using Cbz-Phe-Arg-AMC as substrate by spectrofluorometric analysis

## c1ccc2c(NCCCCCCCCCNc3c4c(nc5ccccc35)CCCC4)c3c(nc2c1)CCCC3
[1]
  inhibition: 82%
[2]
  inhibition: 70.6 to 71.4%
[3]
  inhibition: Active
Leishmania infantum
  Activity: Active
[4]
  inhibition: 36.4 to 47%
[5]
  inhibition: 60.2%
[6]
  inhibition: 49.6 to 52.9%
[7]
  inhibition: Dose-dependent effect

## c1ccc2c(NCCCNc3c4c(nc5ccccc35)CCCC4)c3c(nc2c1)CCCC3
[3]
  inhibition: Active
Leishmania infantum
  Activity: Active

## c1ccc2c(NCCNc3c4c(nc5ccccc35)CCCC4)c3c(nc2c1)CCCC3
[3]
  inhibition: Active
Leishmania infantum
  Activity: Active

## c1ccc2c(NCCCCNc3c4c(nc5ccccc35)CCCC4)c3c(nc2c1)CCCC3
[3]
  inhibition: Active
Leishmania infantum
  Activity: Active
